Results on 1 substance are retold here after publication PMC8866119.

The experiment has as its target SARS-CoV-2 wild-type RBD (SARS-CoV-2) (UniProt P0DTC2). In words: BLI. (In general: In BLI a coated tip is dipped into the sample, and binding shifts an interference pattern.)

As for LY-CoV555, the koff – broadly, a measure of how fast the partners let go of each other – is 0.000558 s⁻¹.
